From ChEMBL document CHEMBL5375988, “AcGlcAs: A Novel P53-Targeting Arsenical with Potent Cellular Uptake and Cancer Cell Selectivity” (J Med Chem, 2023)
Calls of active or inactive are those of the source.

By UniProt entry, the sequences of proteins in these tests, tags left out. Where a name states a change or a piece, a line headed by the entry shows the natural chain unless it says otherwise.
UniProt P60484: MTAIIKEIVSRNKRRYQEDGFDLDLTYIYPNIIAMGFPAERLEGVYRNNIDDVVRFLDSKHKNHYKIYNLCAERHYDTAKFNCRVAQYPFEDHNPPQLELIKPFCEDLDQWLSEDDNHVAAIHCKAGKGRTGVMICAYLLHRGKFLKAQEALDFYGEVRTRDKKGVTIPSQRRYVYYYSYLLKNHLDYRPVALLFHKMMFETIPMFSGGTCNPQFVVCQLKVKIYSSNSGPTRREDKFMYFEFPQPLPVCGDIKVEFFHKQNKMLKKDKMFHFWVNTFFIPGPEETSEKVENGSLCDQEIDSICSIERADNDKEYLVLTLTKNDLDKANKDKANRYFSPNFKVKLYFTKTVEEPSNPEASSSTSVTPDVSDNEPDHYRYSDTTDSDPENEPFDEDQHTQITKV

Experiments:
[1] = system: GTPase KRas (Homo sapiens), P01116 [G12C]; experiment: Binding affinity to KRAS-G12C mutant (unknown origin) with exposed Cys12 assessed as increase in melting temperature at 1:15 ratio in HEPES at pH 7.5 by DSF analysis
[2] = biological target: Replicase polyprotein 1ab (Severe acute respiratory syndrome coronavirus 2) (UniProt P0DTD1); experiment: Binding affinity to SARS-CoV-2 MPro with exposed Cys145 assessed as increase in melting temperature at 1:15 ratio in HEPES at pH 7.5 by DSF analysis
[3] = biological target: Phosphatidylinositol 3,4,5-trisphosphate 3-phosphatase and dual-specificity protein phosphatase PTEN (Homo sapiens) (UniProt P60484); experiment: Binding affinity to PTEN (unknown origin) with exposed Cys124 assessed as increase in melting temperature at 1:15 ratio in HEPES at pH 7.5 by DSF analysis

Measured: Activity

I[As](I)I
inactive: all assays above
